Results deposited as PubChem BioAssay AID624099 (ICCB-Longwood, 2012)
This is one part, drawn at random, of about 21,000 reagents. 497 of them (2.4%) count as active. 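Higher z means weaker E2 silencing; only reporter increases were scored, and knock-downs that hurt cell survival may mask genuine repressor factors.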 Unmarked entries are inactive.

Purpose: 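Human genes that papillomavirus E2 requires to repress the HPV18 LCR promoter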 (primary screen)
Cell system: human C33A cervical carcinoma cells (HPV-negative) stably expressing BPV1 E2 and an HPV18 LCR luciferase reporter
Reagent: siRNA pool against human genes, 40 nM
Duration: 72 h
Measurement: 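Per-well luciferase luminescence, z-scored on each plate against the plate mean and SD with control wells left out, then averaged across three replicate plates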
Scale: mean z-score and z-score: higher = stronger reporter signal, weaker E2 silencing
Active means: 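Mean z ≥ 2 together with z ≥ 2 in two or more of the three replicates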

PCYT1B → mean z-score: 0.12; z-score, replicate A: 0.26; z-score, replicate B: -0.09; z-score, replicate C: 0.21
CHMP5 → mean z-score: -0.28; z-score, replicate A: 0.1; z-score, replicate B: -0.59; z-score, replicate C: -0.34
FBXO6 → mean z-score: -0.23; z-score, replicate A: -0.32; z-score, replicate B: 0.08; z-score, replicate C: -0.45
LOC401518 (retired record) → mean z-score: 0.06; z-score, replicate A: 0.06; z-score, replicate B: 0.22; z-score, replicate C: -0.11
WDR31 → mean z-score: -0.92; z-score, replicate A: -1.07; z-score, replicate B: -0.92; z-score, replicate C: -0.79
ERGIC1 → mean z-score: -0.66; z-score, replicate A: -0.59; z-score, replicate B: -0.56; z-score, replicate C: -0.83
LOC339209 (retired record) → mean z-score: 0.68; z-score, replicate A: 0.53; z-score, replicate B: 0.16; z-score, replicate C: 1.35
SH2B2 → mean z-score: -0.4; z-score, replicate A: -0.28; z-score, replicate B: -0.52; z-score, replicate C: -0.41
LARP6 → mean z-score: -0.53; z-score, replicate A: -0.81; z-score, replicate B: -0.74; z-score, replicate C: -0.05
PDE6H → mean z-score: 0.08; z-score, replicate A: 0; z-score, replicate B: 0.3; z-score, replicate C: -0.07
CNN2 → mean z-score: -1.04; z-score, replicate A: -0.89; z-score, replicate B: -1.23; z-score, replicate C: -1
TRIM33 → mean z-score: 0.91; z-score, replicate A: 0.66; z-score, replicate B: 1.02; z-score, replicate C: 1.04
LOC339306 (retired record) → mean z-score: 0.55; z-score, replicate A: 0.12; z-score, replicate B: 0.74; z-score, replicate C: 0.79
RRH → mean z-score: 0.86; z-score, replicate A: 0.87; z-score, replicate B: 0.88; z-score, replicate C: 0.82
LOC388235 (retired record) → mean z-score: 0.34; z-score, replicate A: 0.34; z-score, replicate B: 0.26; z-score, replicate C: 0.4
CETP → mean z-score: 0.09; z-score, replicate A: 0.36; z-score, replicate B: 0.12; z-score, replicate C: -0.21
OR8G1 → mean z-score: 0.58; z-score, replicate A: 0.59; z-score, replicate B: 0.63; z-score, replicate C: 0.51
XBP1 → mean z-score: 1.28; z-score, replicate A: 1.25; z-score, replicate B: 1.4; z-score, replicate C: 1.2
MAP3K15 → mean z-score: 0.99; z-score, replicate A: 0.97; z-score, replicate B: 0.97; z-score, replicate C: 1.03
TNFRSF14-AS1 → mean z-score: 0.3; z-score, replicate A: 0.15; z-score, replicate B: -0.01; z-score, replicate C: 0.76
PMPCB → mean z-score: 0.64; z-score, replicate A: 0.59; z-score, replicate B: 0.78; z-score, replicate C: 0.56
